Measured values from several laboratories, pooled; numbers as filed in NIAID ChemDB.

Shared fields: whole-cell or culture tests; species: Candida albicans

ECn: concentration that inhibits the pathogen or its effect by n%. MIC50, MIC90 and the like: level of inhibition, or share of isolates inhibited. Conditions beyond the fields shown may differ between rows. An empty or dashed field is not shown.

SMILES | strain or isolate | setting | read by | endpoint | value
CCCCCCCCCCCCCCON1C(N)=NC(N)=NC1(C)C |  |  |  | MIC | 15 µg/mL
C/C=C/C=C(/C)C(=O)O[C@H]1[C@H](O)[C@H](OCC23C4C=C(C(C)C)C2(C(=O)O)C(C=O)(C4)[C@@H]2CC[C@@H](C)[C@H]23)O[C@H](C)[C@H]1OC | 2402E |  |  | MIC | 0.06 µg/mL
NC1=NC2(CCCCC2)N(OCCCCCCCc2ccccc2)C(N)=N1 |  |  |  | MIC | >60 µg/mL
CCCCCOc1ccc(-c2cc(-c3ccc(C(=O)N[C@H]4C[C@@H](O)[C@@H](O)NC(=O)[C@@H]5[C@@H](O)[C@@H](C)CN5C(=O)[C@H]([C@H](O)CC(N)=O)NC(=O)[C@H]([C@H](O)[C@@H](O)c5ccc(O)c(OS(=O)(=O)O)c5)NC(=O)[C@@H]5C[C@@H](O)CN5C(=O)[C@H]([C@@H](C)O)NC4=O)cc3)no2)cc1 | 16010 |  |  | MIC | 0.0078 µg/mL
CNc1ccc(C(=O)CC(O)CCC(C)C2OC(=O)CC(O)CC(=O)CC(O)CC(O)CC(O)CC(O)CC3(O)CC(O)C(C(=O)NCCN(C)C)C(CC(O[C@@H]4O[C@H](C)[C@@H](O)[C@H](NC(=O)CN5CCN(C)CC5)[C@@H]4O)/C=C/C=C/C=C/C=C\C=C/C=C/C=C/C2C)O3)cc1 | 200 |  |  | MIC | 0.12 µg/mL
CCCCCCCCCCSc1cc(=S)ss1 | ATCC 10231 |  |  | MIC | >250 µg/mL
COc1ccc(C[C@H](NC(=O)[C@@H](N)CCCN=C(N)N)C(=O)N[C@H]2[C@@H](O)[C@H](n3cnc4c(N)ncnc43)O[C@@H]2C(=O)O)cc1 | FP633 |  |  | MIC | 100 µg/mL
S=c1cc(SCC2CCCC2)ss1 | ATCC 10231 |  |  | MIC | 100 µg/mL
CCCCNC(=O)N[C@@H](Cc1ccc(OC)cc1)C(=O)N[C@H]1[C@@H](O)[C@H](n2cnc3c(N)ncnc32)O[C@@H]1C(=O)NCCCC | FP633 |  |  | MIC | >100 µg/mL
Nn1c(SCC(O)(Cn2cncn2)c2ccc(Cl)cc2Cl)nnc1-c1ccc(Cl)cc1 | IRFC 192 |  | broth dilution | MIC | >64 µg/mL
CNc1ccc(C(=O)CC(O)CCC(C)C2OC(=O)CC(O)CC(=O)CC(O)CC(O)CC(O)CC(O)CC3(O)CC(O)C(C(=O)NCCN(C)C)C(CC(O[C@@H]4O[C@H](C)[C@@H](O)[C@H](NC(=O)CN(C)C)[C@@H]4O)/C=C/C=C/C=C/C=C\C=C/C=C/C=C/C2C)O3)cc1 | 73 |  |  | MIC | 0.06 µg/mL
CCC(C)CC(C)CCCCCCCCC(=O)N[C@H]1C[C@@H](O)[C@H](NCCN)NC(=O)[C@@H]2[C@@H](O)CCN2C(=O)[C@H]([C@H](O)CCN)NC(=O)[C@H]([C@H](O)[C@@H](O)c2ccc(O)cc2)NC(=O)[C@@H]2C[C@@H](O)CN2C(=O)[C@H]([C@@H](C)O)NC1=O | 373 |  | broth dilution | MIC | 0.12 µg/mL
Nn1c(SCC(O)(Cn2cncn2)c2ccc(Cl)cc2Cl)nnc1-c1ccc(O)cc1 | ATCC 18804 |  | broth dilution | MIC | 64 µg/mL
C[C@@H](c1ncncc1F)[C@](O)(Cn1cncn1)c1ccc(F)cc1F | 373 |  | broth dilution | MIC | 0.12 µg/mL
Clc1ccc(C(Cn2ccnc2)OCc2csc3c(Cl)cccc23)c(Cl)c1 | 63 isolates | 24 h | absorbance | MIC50 | 0.5 µg/mL
OC(Cn1cncn1)(Cn1cncn1)c1ccc(F)cc1F | 2881 |  |  | MFC | >100 µg/mL
CCOc1cc2c(cc1F)n([O-])c(C)c(Cl)[n+]2=O | Clinical isolate 15 |  |  | MIC | 62.5 µg/mL
C[C@H]1[C@H](O)[C@@H](C)/C=C/C=C/C=C/C=C/C=C/C=C/C=C/[C@H](O[C@@H]2O[C@H](C)[C@@H](O)[C@H](N)[C@@H]2O)C[C@@H]2O[C@](O)(C[C@@H](O)C[C@@H](O)CC[C@H](O)[C@@H](O)C[C@@H](O)CC(=O)O[C@H]1C)C[C@H](O)[C@H]2C(=O)O | 34 isolates |  |  | MIC50 | 0.5 µg/mL
CC1N=C(N)N=C(N)N1OCc1cccc2ccccc12 |  |  |  | MIC | >240 µg/mL
CNc1ccc(C(=O)CC(O)CCC(C)C2OC(=O)CC(O)CC(=O)CC(O)CC(O)CC(O)CC(O)CC3(O)CC(O)C(C(=O)N4CCCCC4)C(CC(O[C@@H]4O[C@H](C)[C@@H](O)[C@H](N)[C@@H]4O)/C=C/C=C/C=C/C=C\C=C/C=C/C=C/C2C)O3)cc1 | 73 |  |  | MIC | 0.06 µg/mL
Cc1c(Sc2ccccc2)[n+](=O)c2cc(Cl)ccc2n1[O-] | Clinical isolate 4 |  |  | MIC | 31.25 µg/mL
Nn1c(SCC(O)(Cn2cncn2)c2ccc(Cl)cc2Cl)nnc1-c1ccc(Cl)cc1Cl | IRFC 192 |  | broth dilution | MIC | 4 µg/mL
C[C@@H](n1ccn(-c2ccc(OC(F)(F)C(F)F)cc2)c1=O)C(O)(Cn1cncn1)c1ccccc1F | TIMM1756 |  |  | MIC | <0.016 µg/mL
O=[n+]1c(Sc2ccccc2)c(CBr)n([O-])c2ccccc21 | Clinical isolate 20 |  |  | MIC | 15.6 µg/mL
Nc1ncnc2c1ncn2[C@@H]1O[C@H](C(=O)O)[C@@H](NC(=O)C(N)Cc2cccs2)[C@H]1O | FP633 |  |  | MIC | 1.6 µg/mL
COc1ccccc1C1N=C(N)N=C(N)N1OCc1cccc2ccccc12 |  |  |  | MIC | >240 µg/mL
C[C@H]1[C@H](O)[C@@H](C)/C=C/C=C/C=C/C=C/C=C/C=C/C=C/[C@H](O[C@@H]2O[C@H](C)[C@@H](O)[C@H](N)[C@@H]2O)C[C@@H]2O[C@](O)(C[C@@H](O)C[C@@H](O)CC[C@H](O)[C@@H](O)C[C@@H](O)CC(=O)O[C@H]1C)C[C@H](O)[C@H]2C(=O)O | 73 |  |  | MIC | 0.48 µg/mL
C#CCSCC(N)C(=O)N[C@H]1[C@@H](O)[C@H](n2cnc3c(N)ncnc32)O[C@@H]1C(=O)O | FP633 |  |  | MIC | 0.2 µg/mL
COc1ccc2sc3cc4ccccc4[n+](C)c3c2c1 | ATCC 90028 |  | resazurin | EC50 | >20 µg/mL
COc1cc(O)c2c(c1)C(=O)c1c(cc3c(c1O)-c1c(cc(C)c(C(=O)NC(CO)C(=O)O)c1O)[C@H](OC1OC(C)C(O)C(OC4OCC(O)C(O)C4O)C1O)C3O)C2=O | KB 83/005 (azole-resistant) |  |  | MIC | 4 µg/mL
C[C@@H](n1ccn(-c2ccc(OC(F)(F)C(F)F)cc2)c1=O)C(O)(Cn1cncn1)c1ccc(F)cc1F | TA |  |  | MIC | <0.016 µg/mL
CC(C)(C)CSc1cc(=S)ss1 | ATCC 10231 |  |  | MIC | 50 µg/mL
Cc1ccc(-c2nnc(SCC(O)(Cn3cncn3)c3ccc(Cl)cc3Cl)n2N)cc1 | PTCC 6027 |  | broth dilution | MIC | 2 µg/mL
C[C@@H](N1CCN(c2ccc(OC(F)(F)F)cc2)C1=O)C(O)(Cn1cncn1)c1ccc(F)cc1F | TIMM1756 |  |  | MIC | <0.016 µg/mL
CCSSc1ssc(=S)c1-c1ccccc1 | ATCC 10231 |  |  | MIC | 62.5 µg/mL
Nn1c(SCC(O)(Cn2cncn2)c2ccc(Cl)cc2Cl)nnc1-c1ccccc1 | ATCC 18804 |  | broth dilution | MIC | 32 µg/mL
Nc1ncnc2c1ncn2[C@@H]1O[C@H](C(=O)O)[C@@H](NC(=O)CC(N)c2ccccc2)[C@H]1O | FP633 |  |  | MIC | >100 µg/mL
Nn1c(SCC(O)(Cn2cncn2)c2ccc(F)cc2F)nnc1-c1ccc(O)cc1 | PTCC 6027 |  | broth dilution | MIC | >64 µg/mL
Cc1c(Cl)[n+](=O)c2cc(Cl)ccc2n1[O-] | Clinical isolate 2 |  |  | MIC | 15.6 µg/mL
Nc1ncnc2c1ncn2[C@@H]1O[C@H](C(=O)O)[C@@H](NC(=O)c2ccccc2)[C@H]1O | FP633 |  |  | MIC | >100 µg/mL
C[n+]1c2cccc(O)c2cc2sc3ccccc3c21 | ATCC 90028 |  | resazurin | EC50 | >20 µg/mL
COC(c1ccccc1)C(N)C(=O)N[C@H]1[C@@H](O)[C@H](n2cnc3c(N)ncnc32)O[C@@H]1C(=O)O | FP633 |  |  | MIC | >100 µg/mL
CNc1ccc(C(=O)CC(O)CCC(C)C2OC(=O)CC(O)CC(=O)CC(O)CC(O)CC(O)CC(O)CC3(O)CC(O)C(C(=O)N4CCN(C)CC4)C(CC(O[C@@H]4O[C@H](C)[C@@H](O)[C@H](NC(=O)CN(C)C)[C@@H]4O)/C=C/C=C/C=C/C=C\C=C/C=C/C=C/C2C)O3)cc1 | 200 |  |  | MIC | 0.06 µg/mL
CCCCCCCCCCCCCC[C@H](N)C(=O)N[C@H](C(=O)O)C1O[C@@H](n2ccc(=O)[nH]c2=O)[C@H](O)[C@@H]1O | 124 NIK (nikkomycin-R) |  |  | MIC | >320 µg/mL
c1ccc(-c2ccc(C(c3ccccc3)n3ccnc3)cc2)cc1 |  |  |  | MIC | 1 µg/mL
Nn1c(SCC(O)(Cn2cncn2)c2ccc(F)cc2F)nnc1-c1cccc(Br)c1 | IRFC 192 |  | broth dilution | MIC | >64 µg/mL
CNc1ccc(C(=O)CC(O)CCC(C)C2OC(=O)CC(O)CC(=O)CC(O)CC(O)CC(O)CC(O)CC3(O)CC(O)C(C(=O)N4CCN(C)CC4)C(CC(O[C@@H]4O[C@H](C)[C@@H](O)[C@H](NC(=O)CN5CCN(C)CC5)[C@@H]4O)/C=C/C=C/C=C/C=C\C=C/C=C/C=C/C2C)O3)cc1 | 200 |  |  | MIC | 0.03 µg/mL
C[C@@H](n1ccn(-c2ccc(OCC(F)(F)C(F)F)cc2)c1=O)C(O)(Cn1cncn1)c1ccc(F)cc1F | TA |  |  | MIC | <0.016 µg/mL
COc1ccc(-c2nnc(SCC(O)(Cn3cncn3)c3ccc(F)cc3F)n2N)cc1 | PTCC 6027 |  | broth dilution | MIC | >64 µg/mL
Nc1ncnc2c1ncn2[C@@H]1O[C@H](C(=O)O)[C@@H](NC(=O)C(N)CSCc2ccc(O)cc2)[C@H]1O | FP633 |  |  | MIC | 0.2 µg/mL

4 of the rows above, restated:

{"SMILES": "CNc1ccc(C(=O)CC(O)CCC(C)C2OC(=O)CC(O)CC(=O)CC(O)CC(O)CC(O)CC(O)CC3(O)CC(O)C(C(=O)N4CCCCC4)C(CC(O[C@@H]4O[C@H](C)[C@@H](O)[C@H](N)[C@@H]4O)/C=C/C=C/C=C/C=C\\C=C/C=C/C=C/C2C)O3)cc1", "strain or isolate": "73", "endpoint": "MIC", "value": "0.06 µg/mL"}
{"SMILES": "Cc1c(Sc2ccccc2)[n+](=O)c2cc(Cl)ccc2n1[O-]", "strain or isolate": "Clinical isolate 4", "endpoint": "MIC", "value": "31.25 µg/mL"}
{"SMILES": "C[C@@H](n1ccn(-c2ccc(OCC(F)(F)C(F)F)cc2)c1=O)C(O)(Cn1cncn1)c1ccc(F)cc1F", "strain or isolate": "TA", "endpoint": "MIC", "value": "<0.016 µg/mL"}
{"SMILES": "CNc1ccc(C(=O)CC(O)CCC(C)C2OC(=O)CC(O)CC(=O)CC(O)CC(O)CC(O)CC(O)CC3(O)CC(O)C(C(=O)N4CCN(C)CC4)C(CC(O[C@@H]4O[C@H](C)[C@@H](O)[C@H](NC(=O)CN5CCN(C)CC5)[C@@H]4O)/C=C/C=C/C=C/C=C\\C=C/C=C/C=C/C2C)O3)cc1", "strain or isolate": "200", "endpoint": "MIC", "value": "0.03 µg/mL"}